# Measurements taken from PMC4810223 (Toxins, 2016).
# Chains of the proteins cited; added tags and fusions are not shown.
# UniProt Q15858, whole entry: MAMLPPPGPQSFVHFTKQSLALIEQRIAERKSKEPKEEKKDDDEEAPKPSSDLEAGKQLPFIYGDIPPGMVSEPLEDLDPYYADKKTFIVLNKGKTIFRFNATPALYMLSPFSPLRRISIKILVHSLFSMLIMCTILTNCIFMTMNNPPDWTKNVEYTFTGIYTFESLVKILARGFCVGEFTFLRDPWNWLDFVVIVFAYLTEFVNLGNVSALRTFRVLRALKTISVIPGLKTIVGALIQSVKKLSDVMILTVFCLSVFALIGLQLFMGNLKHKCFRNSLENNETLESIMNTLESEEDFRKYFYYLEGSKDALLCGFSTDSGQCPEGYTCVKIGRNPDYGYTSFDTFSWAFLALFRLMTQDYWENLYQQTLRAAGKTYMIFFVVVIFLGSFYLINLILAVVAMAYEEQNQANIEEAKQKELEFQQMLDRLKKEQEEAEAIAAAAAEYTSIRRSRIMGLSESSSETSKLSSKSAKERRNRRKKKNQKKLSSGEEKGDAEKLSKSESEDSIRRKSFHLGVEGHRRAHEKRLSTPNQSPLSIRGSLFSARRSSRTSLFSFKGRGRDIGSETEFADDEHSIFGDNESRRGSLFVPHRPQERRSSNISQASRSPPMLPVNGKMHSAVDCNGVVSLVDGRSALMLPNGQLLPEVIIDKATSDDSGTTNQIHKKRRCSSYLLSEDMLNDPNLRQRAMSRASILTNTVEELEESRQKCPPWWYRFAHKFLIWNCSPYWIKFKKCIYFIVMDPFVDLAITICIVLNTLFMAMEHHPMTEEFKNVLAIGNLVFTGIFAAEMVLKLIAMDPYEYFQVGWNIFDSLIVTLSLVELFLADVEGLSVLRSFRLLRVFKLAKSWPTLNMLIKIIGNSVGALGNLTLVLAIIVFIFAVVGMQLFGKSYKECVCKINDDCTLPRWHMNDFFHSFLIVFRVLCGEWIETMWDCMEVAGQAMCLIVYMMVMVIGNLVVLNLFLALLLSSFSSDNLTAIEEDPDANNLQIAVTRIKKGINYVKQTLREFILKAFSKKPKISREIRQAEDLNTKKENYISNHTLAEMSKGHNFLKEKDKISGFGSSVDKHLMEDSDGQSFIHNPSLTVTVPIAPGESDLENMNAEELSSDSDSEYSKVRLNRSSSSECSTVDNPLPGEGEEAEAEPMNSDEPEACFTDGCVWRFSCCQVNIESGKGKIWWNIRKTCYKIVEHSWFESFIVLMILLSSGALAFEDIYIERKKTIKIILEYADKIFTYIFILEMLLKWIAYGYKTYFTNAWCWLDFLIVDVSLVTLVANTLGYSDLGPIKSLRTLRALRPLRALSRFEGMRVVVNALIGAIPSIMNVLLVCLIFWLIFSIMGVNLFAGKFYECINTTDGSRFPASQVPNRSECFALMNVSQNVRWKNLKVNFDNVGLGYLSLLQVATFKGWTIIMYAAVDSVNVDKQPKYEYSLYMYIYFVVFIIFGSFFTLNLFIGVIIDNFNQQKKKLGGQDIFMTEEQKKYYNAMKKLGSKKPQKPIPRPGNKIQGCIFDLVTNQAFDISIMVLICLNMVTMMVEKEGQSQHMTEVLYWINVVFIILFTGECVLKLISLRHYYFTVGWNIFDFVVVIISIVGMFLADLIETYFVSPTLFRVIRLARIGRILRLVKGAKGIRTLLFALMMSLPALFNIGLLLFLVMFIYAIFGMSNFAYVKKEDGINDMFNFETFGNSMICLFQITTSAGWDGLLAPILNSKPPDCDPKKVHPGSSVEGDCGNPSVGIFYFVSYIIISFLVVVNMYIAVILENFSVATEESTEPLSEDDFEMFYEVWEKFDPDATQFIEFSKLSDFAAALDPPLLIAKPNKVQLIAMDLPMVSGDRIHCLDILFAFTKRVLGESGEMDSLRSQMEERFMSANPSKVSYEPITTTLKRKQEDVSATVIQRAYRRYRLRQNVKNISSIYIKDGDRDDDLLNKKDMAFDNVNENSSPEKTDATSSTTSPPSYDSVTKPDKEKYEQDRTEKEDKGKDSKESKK
# How the values were obtained:
# [1] = tested on: OD1-induced spontaneous pain behaviors (NaV1.7-mediated pain); experiment: Effect of inhibitors on OD1-induced spontaneous pain behaviors in mice; conditions: control 105 ± 6
# hNaV1.7 = hNaV1.7 (Homo sapiens, UniProt Q15858); experiment: Automated patch clamping (QPatch) in CHO cells heterologously expressing hNaV1.7; format: cell-based; conditions: OD1 300 nM, 8 s conditioning step of −55 mV; Figure S2
smiles,measurement,setting,value
Cn1nccc1-c1ccccc1Oc1ccc(S(=O)(=O)Nc2nccs2)cc1C#N,spontaneous pain behaviors,"[1]; intraperitoneal 30 mg/kg, 15 min prior to OD1",42 ± 8 behaviors/10 min
same,spontaneous pain behaviors,"[1]; intraplantar 10 μM, co-injected with OD1 300 nM",81 ± 12 behaviors/10 min
same,spontaneous pain behaviors,"[1]; intraplantar 100 μM, co-injected with OD1 300 nM",31 ± 8 behaviors/10 min
same,spontaneous pain behaviors,"[1]; intraplantar 1 mM, co-injected with OD1 300 nM",19 ± 6 behaviors/10 min
same,effect on currents in the presence of OD1 (sample traces),hNaV1.7,inhibited peak current
